Assay results reported in patent US20150065466A1, “NOVEL DXR INHIBITORS FOR ANTIMICROBIAL THERAPY” (priority 2012, published 2015).

Protein sequences, listed by entry. Tags and fused reporters are not part of them. Residues count along the entry.
UniProt P45568, whole entry: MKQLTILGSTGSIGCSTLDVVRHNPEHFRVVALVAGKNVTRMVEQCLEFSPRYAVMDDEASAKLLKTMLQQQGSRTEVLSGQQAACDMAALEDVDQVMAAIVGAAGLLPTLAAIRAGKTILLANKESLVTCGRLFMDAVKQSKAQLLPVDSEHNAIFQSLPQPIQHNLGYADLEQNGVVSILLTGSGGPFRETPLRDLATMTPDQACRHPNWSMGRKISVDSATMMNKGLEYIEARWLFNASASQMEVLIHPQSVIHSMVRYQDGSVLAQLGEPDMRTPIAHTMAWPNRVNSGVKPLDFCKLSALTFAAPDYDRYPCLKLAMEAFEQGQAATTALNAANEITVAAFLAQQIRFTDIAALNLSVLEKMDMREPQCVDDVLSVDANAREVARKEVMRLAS
UniProt S8ESX0, 187-632 limits assumed: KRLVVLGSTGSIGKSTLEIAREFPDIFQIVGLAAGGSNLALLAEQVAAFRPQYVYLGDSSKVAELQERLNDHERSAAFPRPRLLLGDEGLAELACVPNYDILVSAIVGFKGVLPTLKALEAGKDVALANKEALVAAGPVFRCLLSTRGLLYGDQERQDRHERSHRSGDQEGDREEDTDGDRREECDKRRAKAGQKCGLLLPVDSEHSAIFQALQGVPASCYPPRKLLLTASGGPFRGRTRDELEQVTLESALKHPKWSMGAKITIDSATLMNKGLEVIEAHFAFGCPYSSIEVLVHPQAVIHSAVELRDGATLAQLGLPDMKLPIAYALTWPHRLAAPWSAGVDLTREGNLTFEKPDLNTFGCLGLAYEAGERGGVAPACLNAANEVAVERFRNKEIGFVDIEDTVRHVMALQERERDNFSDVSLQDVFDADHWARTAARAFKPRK

Tests used:
[1] = target: EcDXR (Escherichia coli, UniProt P45568); settings: read-out: Ki EcDXR; cited from earlier work
[2] = target: TgDXR (Toxoplasma gondii, UniProt S8ESX0); assay: recombinant TgDXR enzyme inhibition

Compound	Ki [1] [nM]	Ki against TgDXR, in words [2]
O=c1ccc(-c2ccccc2)cn1O	700	–
O=P(O)(O)Cc1ccc(-c2ccccc2)cn1	–	low μM range
